The entries are a selection whose mix differs from that of the whole data set. Calls of active or inactive are those of the source. The call rests on the fitted dose curve; in most records, active means well fitted inhibition curve with a large enough effect; inconclusive means small, poorly fitted or top-dose-only effect; inactive means no such curve, though single readings can be large or run the other way. Entries that show only a call come without a potency.
Test system: Plasmodium falciparum AMA1 (3D7) - RON2 peptide interaction
Assay: qHTS for Inhibitors of AMA1-RON; Towards Development of Antimalarial Drug Lead: Primary Screen; further: nearly all actives have a fitted effect of over 45% in size
Details: AlphaScreen AMA1-biotinylated RON2 peptide binding; series mostly up to 58.2 µM

Compound | Potency
O=[As](O)(c1ccccc1)c1ccc(O)cc1 | inactive
O=[N+]([O-])c1ncn(CCn2cnc([N+](=O)[O-])n2)n1 | inactive
CC(=O)NC(SC(=S)N(C)C)C(Cl)(Cl)Cl (configuration not stated) | inactive
O=[N+]([O-])c1ccc(O)c(/C=N/Nc2ccc([N+](=O)[O-])cc2[N+](=O)[O-])c1 | inactive
O=C(OC1CN2CCC1CC2)c1cccc(Cl)c1 (configuration not stated) | inactive
Nc1ccc([As](=O)(O)c2ccc([N+](=O)[O-])cc2)cc1 | inactive
C(Cc1nn[nH]n1)Cc1nn[nH]n1 | inactive
CN(C)C1(CNC(=O)c2ccc(Cl)c(S(N)(=O)=O)c2)CCCCC1 | inactive
Nc1ccc(CCCCOc2ccccc2)cc1 | inactive
COc1ccc(N)c([N+](=O)[O-])c1[N+](=O)[O-] | inactive
O=P(Nc1nc2ccccc2s1)(c1ccccc1)c1ccccc1 | inactive
C[C@H]1OP(=O)(Oc2ccccc2)[C@H](O)[C@H](O)[C@H]1N=[N+]=[N-] (some centres not stated) | inactive
O=P(Nc1nccs1)(c1ccccc1)c1ccccc1 | inactive
CC(C)C(=O)NC(Sc1ccccc1)C(Cl)(Cl)Cl (configuration not stated) | inactive
c1nnnn1CCn1cnnn1 | inactive
Cc1ccccc1CN(C)C(=O)COC(=O)C(O)(c1ccccc1)c1ccccc1 | inactive
C[C@@H]1C=CCP(=O)(Oc2ccccc2)O1 (some centres not stated) | inactive
C[C@H]1OP(=O)(Oc2ccccc2)C[C@@H]2O[C@@H]21 (some centres not stated) | inactive
N#C/C(=C\c1ccc(N(CCBr)CCBr)cc1)C(N)=O | inactive
CC(=O)c1ccc(N2CC2c2ccncc2)cc1 (configuration not stated) | inactive
COC(=O)C1(C)COP(=O)(NCc2ccccc2)OC1 (configuration not stated) | inactive
CC(=O)Nc1ccc([As](=O)(O)O)c(O)c1 | inactive
CC(=O)Nc1ccc(Oc2c([N+](=O)[O-])cc([N+](=O)[O-])cc2[N+](=O)[O-])cc1 | inactive
O=P1(Nc2nc3ccc(Cl)cc3s2)COc2ccccc2O1 (configuration not stated) | inactive
CCOc1ccc(C2=NCC(CBr)S2)cc1 (configuration not stated) | inactive
CC(C)(C)C(=O)NC(Sc1ccccc1)C(Cl)(Cl)Cl (configuration not stated) | inactive

Compound | Potency
CCc1cc(O)c([N+](=O)[O-])c(C)c1[N+](=O)[O-] | inactive
O=C(OC1CN2CCC1CC2)c1ccccc1 (configuration not stated) | inactive
CCC(=O)N1C2C3N(C(=O)CC)C1C1N(C(=O)CC)C(C(N1C(=O)CC)N3C(=O)CC)N2C(=O)CC | inactive
COC(=O)c1cc2c(s1)N=C(c1ccccc1)N(C)P2(=O)N1CCOCC1 (configuration not stated) | inactive
Cc1ccc(OP(=O)(Nc2ccccn2)Oc2ccc(C)cc2)cc1 | inactive
CC(=O)NC(SC(=S)N(CC(C)C)CC(C)C)C(Cl)(Cl)Cl (configuration not stated) | inactive
Cc1ccccc1OP(=O)(Nc1ccccn1)Oc1ccccc1C | inactive
CC(NC(=O)COC(=O)C(O)(c1ccccc1)c1ccccc1)c1ccccc1 (configuration not stated) | inactive
CN(C)C(=O)Oc1noc2ccccc12 | inactive
O=c1c2cc([N+](=O)[O-])ccc2[nH]c2c([N+](=O)[O-])cc([N+](=O)[O-])cc12 | inactive
c1ccc(-c2nn[nH]n2)c(-c2nn[nH]n2)c1 | inactive
Cc1ccc(NP(=O)(Oc2cccc(C)c2)Oc2cccc(C)c2)nc1 | inactive
O=C(NC1CCS(=O)(=O)C1)NP(=S)(Oc1ccccc1)Oc1ccccc1 (configuration not stated) | inactive
CCNC(=S)/N=C(\N)N[N+](=O)[O-] | inactive
O=P1(N(CCCl)CCCl)OCCC2CCCCN21 (configuration not stated) | inactive
Nc1cccc2ccc([As](=O)(O)O)cc12 | inactive
CCN(N=Nc1nonc1N)c1nonc1N | inactive
CN(C)P(=O)(N(C)C)n1c(Nc2ccccc2)nnc1-c1ccccc1 | inactive
O=P(Nc1nc2ccc(Cl)cc2s1)(c1ccccc1)c1ccccc1 | inactive
O=C(O)c1ccccc1[As](=O)(O)O | inactive
CC(=O)Nc1ccc([As](=O)(O)O)cc1 | inactive
CCCC1OP(N)(=O)OCC1CC (configuration not stated) | inactive
CCOP(=O)(Nc1ccccc1)OCC | inactive
Cc1cc(SC(NC(=O)c2ccc(F)cc2)C(Cl)(Cl)Cl)ncn1 (configuration not stated) | inactive
CN(C(=O)Cc1ccc(Cl)c(Cl)c1)[C@H]1CCCC[C@@H]1N1CCCC1 | inactive
Cc1ccc(NP(=O)(Oc2ccccc2F)Oc2ccccc2F)nc1 | inactive

Compound | Potency
Oc1ccccc1CNc1ccccn1 | inactive
O=C(NC(Sc1ccncn1)C(Cl)(Cl)Cl)c1ccccc1 (configuration not stated) | inactive
CC(C)CC(=O)NC(Sc1ccc(Cl)cc1)C(Cl)(Cl)Cl (configuration not stated) | inactive
Nc1cc(N)c2nonc2c1[N+](=O)[O-] | inactive
O=[N+]([O-])C1C(O)C(O)C([N+](=O)[O-])C(O)C1O (configuration not stated) | inactive
CN(C(=O)Cc1ccc(Cl)c(Cl)c1)[C@H]1CCCC[C@H]1N1CCCC1 | inactive
Cc1ccc(N/C(=N/P(=O)(N2CCOCC2)N2CCOCC2)N2CCOCC2)cc1 | inactive
NC(=O)c1cc([N+](=O)[O-])cc([N+](=O)[O-])c1N | inactive
Clc1ccc(Cl)c(NC2=NCC(CBr)S2)c1 (configuration not stated) | inactive
CN1CCCC(OC(=O)C(c2ccccc2)c2ccccc2)C1 (configuration not stated) | inactive
COc1ccccc1OP(=O)(Nc1ccc(C)cn1)Oc1ccccc1OC | inactive
Cc1ccc(OP(=O)(Nc2nccs2)Oc2ccc(C)cc2)cc1 | inactive
CCN(/C(=N/P(=O)(N1CCOCC1)N1CCOCC1)N1CCOCC1)c1ccc(OC)cc1 | inactive
Nc1ccc([As](=O)(O)c2ccc(N)cc2)cc1 | inactive
c1cc(-c2nn[nH]n2)ccc1-c1nn[nH]n1 | inactive
CC1CCN(C(=O)Oc2c(Cl)cc(Cl)c3cccnc23)CC1 | inactive
CC(C)=N/N=C(\N)N[N+](=O)[O-] | inactive
CC(C)c1nc(Nc2ccccc2)n(P(=O)(N(C)C)N(C)C)n1 | inactive
CN(C)C(=O)OCCc1n(C)cc[n+]1C | inactive
COc1ccc(C2=NCC(CBr)S2)cc1 (configuration not stated) | inactive
Cc1ccc(NP(=O)(Oc2ccccc2)Oc2ccccc2)nc1 | inactive
CCc1nc2c(n1)c1c(non1O)c1c2no[n+]1[O-] | inactive
CC(=O)N1C2C3N(C(C)=O)C1C1N(C(C)=O)C(C(N1C(C)=O)N3C(C)=O)N2C(C)=O | inactive
O=[N+]([O-])c1cccc2n[nH]nc12 | inactive
O=[N+]([O-])c1ncn(CCn2ncnc2[N+](=O)[O-])n1 | inactive
